Compound potency records, mixed from different reports. Data source: NIAID ChemDB in PubChem.

Shared fields: whole-cell or culture tests; agent: Hepatitis B virus; read-out: EC50

Two numbers with a dash give a range or band. Neighbouring rows are from separate reports. Blank or dashed fields: not listed here. ECn is the concentration giving n% inhibition of infection, replication or growth.

smiles	setting	method	cell line	strain or isolate	result
C#CCNC(=O)C(=O)c1cn(C)c(C(=O)Nc2ccc(F)c(C#N)c2)c1Cl		PCR	HepG2.2.15		0.01–0.099 µM
CNC(=O)C(=O)N1CCC2CC2(NS(=O)(=O)c2cn(C)c(C(=O)Nc3cc(F)c(F)c(F)c3)c2F)C1		PCR	HepAD38 cells		<0.1 µM
[2H][C@@]1(c2cccc(F)c2C)N=C(c2nccs2)NC(CN2CC(F)(F)[C@@H]3[C@H]2CON3C[C@H](O)C(C)(C)C(=O)O)=C1C(=O)OCC		PCR	HepG2.2.15		0.055 µM
Cc1nnc(-c2ccc(-n3c(=O)c4c(n5ncc(Cc6ccccc6)c35)CN(C(=O)c3ccc(Br)c(Cl)c3)CC4)cc2)n1C		luminescence	HepG2.117		≤0.05 µM
Cn1c(=O)c2c(n3nccc13)CN(C(=O)Nc1ccc(F)c(Cl)c1)CC2	3 d	PCR	HepG2.117		0.5–5 µM
C[C@H](NC(=O)c1c2n(c(=O)n1-c1ccc(OC3CC3)cc1)CCN(C(=O)c1ccc(Br)c(Cl)c1)C2)c1ccc(O[C@H](C)C(N)=O)cc1F		PCR	HepG2.117		0.1–0.5 µM
C#CCc1cnn2c3c(c(=O)n(-c4ccc(C(=O)NC)cc4)c12)C[C@H](C)N(C(=O)c1ccc(Br)c(C(F)(F)F)c1)C3		luminescence	HepG2.117		0.05–0.5 µM
Cn1cc(S(=O)(=O)N[C@@H]2CCN(S(=O)(=O)C3CCCC3)C2)c(F)c1C(=O)Nc1ccc(F)c(F)c1		PCR	HepAD38 cells		0.1–0.3 µM
N#Cc1cc(C(=O)N2CCn3c(c(C(=O)NCc4ccccc4-c4ncccn4)n(-c4ccc(OC5CC5)cc4)c3=O)C2)ccc1Br		PCR	HepG2.117		0.1–0.5 µM
O=C(c1ccc(Cl)c(Cl)c1)N1CCc2c(n3ncc(Cc4ccccc4)c3n(-c3ccccc3)c2=O)C1	3 d	PCR	HepG2.117		<0.1 µM
Cn1cc(CN(C2CC2)S(=O)(=O)CNc2ccc3c(C(=O)Nc4ccc(F)c(Cl)c4)n(C)nc3c2)cn1		PCR	HepAD38		100–1000 µM
C=CCNC(=O)C(=O)c1cn(C)c(C(=O)Nc2ccc(F)c(C#N)c2)c1F		PCR	HepG2.2.15		0.1–0.999 µM
O=C(c1ccc(Br)c(Cl)c1)N1CCS(=O)(=O)[C@](F)(C(=O)NCCc2ccccc2)C1		PCR	HepG2.117		>5 µM
CCOC(=O)C1=C(CN2CC(F)(F)[C@@H]3[C@H]2CON3C[C@H](F)C(C)(C)C(=O)O)NC(c2nccs2)=N[C@H]1c1cccc(F)c1C		PCR	HepG2.2.15		0.0225 µM
Cn1nc2nc(NS(=O)(=O)C3CC3)ncc2c1C(=O)Nc1ccc(F)c(Cl)c1		PCR	HepAD38		>1000 µM
O=C(NCc1cnc(C(F)(F)F)s1)c1ccc2c(c1)NC(=O)c1ccccc1S2(=O)=O		PCR		Genotype D	0.146 µM
O=C(c1ccc(Br)c(Cl)c1)N1CCS(=O)(=O)[C@@H](c2ccccc2)C1		PCR	HepG2.117		0.1–0.5 µM
C#C[C@@](CO)(NC(=O)C(=O)c1c(C)c(C(=O)Nc2ccc(F)c(C#N)c2)n(C)c1C)C(F)(F)F		PCR	HepG2.2.15		0.001–0.0099 µM
CCOC(=O)C1=C(CN2CC(F)(F)[C@@H]3[C@H]2CON3C[C@@H](F)C(C)(C)C(=O)O)NC(c2nccs2)=N[C@H]1c1ccc(F)cc1Cl		PCR	HepG2.2.15		0.00095 µM
CNS(=O)(=O)N1CCCC(C)(NS(=O)(=O)c2cn(C)c(C(=O)Nc3ccc(F)c(F)c3)c2F)C1		PCR	HepAD38 cells		<0.1 µM
C#CC1(NC(=O)C(=O)c2c(C)c(C(=O)Nc3ccnc(Br)c3F)n(C)c2C)CC(F)(F)C1		PCR	HepG2.2.15		<0.001 µM
COc1ccc(-n2c(C(=O)N[C@H](c3ccccc3)C(F)F)c3n(c2=O)CCN(C(=O)c2ccc(Br)c(Cl)c2)C3)cc1		PCR	HepG2.117		0.1–0.5 µM
CNC(=O)c1ccc(-n2c(=O)c3c(n4ncc(Cc5ccccc5)c24)CN(C(=O)c2ccc(Br)c(C(F)(F)F)c2)[C@H](C2CC2)C3)cc1		luminescence	HepG2.117		≤0.05 µM
CCOC(=O)C1=C(CN2CC(F)(F)[C@@H]3[C@H]2CON3[C@@H](C)[C@@H](O)C(C)(C)C(=O)O)NC(c2nccs2)=N[C@H]1c1cccc(F)c1C		PCR	HepG2.2.15		0.036 µM
COc1ccc(-n2c(C(=O)NCc3ccc(F)c(OC)c3)c3n(c2=O)CCN(C(=O)c2ccc(Cl)c(Cl)c2)C3)cc1		PCR	HepG2.117		0.5–5 µM
CNC(=O)c1ccc(-n2c(=O)c3c(n4ncc(NCc5ccc(OC(F)(F)F)cc5)c24)CN(C(=O)c2ccc(Br)c(Cl)c2)CC3)cc1	3 d	PCR	HepG2.117		<0.1 µM
Cn1nc2cc(NS(=O)(=O)c3ccn(-c4ccccn4)n3)ccc2c1C(=O)Nc1ccc(F)c(Cl)c1		PCR	HepAD38		100–1000 µM
Cc1nc(-c2ccc(-n3c(=O)c4c(n5ncc(CC(C)C)c35)CN(C(=O)c3ccc(Br)c(C(F)(F)F)c3)[C@H](C)C4)cc2)n[nH]1		luminescence	HepG2.117		≤0.05 µM
COc1ccc(-n2c(C(=O)Nc3ncccc3Cc3ccccc3)c3n(c2=O)CCN(C(=O)c2ccc(Br)c(Cl)c2)C3)cc1		PCR	HepG2.117		0.5–5 µM
Cn1nc2cc(NS(=O)(=O)c3cnn(-c4cccc(N)n4)c3)ccc2c1C(=O)Nc1ccc(F)c(Cl)c1		PCR	HepAD38		<100 µM
CNC(=O)c1ccc(-n2c(=O)c3c(n4ncc(Nc5ccccc5)c24)CN(C(=O)c2ccc(Br)c(Cl)c2)CC3)cc1	3 d	PCR	HepG2.117		<0.1 µM
COC(=O)C1=C(CN2CC(F)(F)[C@@H]3[C@H]2CON3C[C@H](OC)C(C)(C)C(=O)O)NC(c2nccs2)=N[C@H]1c1ccc(F)cc1Cl		PCR	HepG2.2.15		0.031 µM
Cn1cc(S(=O)(=O)NC2CCN(S(=O)(=O)C3(C)CC3)CC2)c(F)c1C(=O)Nc1ccc(F)c(F)c1		PCR	HepAD38 cells		<0.1 µM
C[C@@H]1Cc2c(n3ncc(Cc4ccccc4)c3n(-c3ccc(-c4nn(C)c(=O)[nH]4)cc3)c2=O)CN1C(=O)c1ccc(Br)c(C(F)(F)F)c1		luminescence	HepG2.117		≤0.05 µM
Cn1nc2ccc(NC(=O)OCc3ccncc3)cc2c1C(=O)Nc1ccc(F)c(Cl)c1		PCR	HepAD38		100–1000 µM
CC(C)[C@H](N)C(=O)OCN(C)C(=O)c1ccc(-n2c(=O)c3c(n4ncc(CC5CC5)c24)CN(C(=O)c2ccc(Br)c(C(F)(F)F)c2)[C@@H](C)C3)cc1		luminescence	HepG2.117		>5 µM
COc1ccc(CN2C[C@H](O)Cn3c(c4n(c3=O)CCN(C(=O)c3ccc(Br)c(Cl)c3)C4)C2=O)cc1		PCR			0.1–5 µM
CC(C)Cc1cnn2c3c(c(=O)n(-c4ccc(-c5nncn5C)cc4)c12)C[C@H](C)N(C(=O)c1ccc(Br)c(Cl)c1)C3		luminescence	HepG2.117		0.05–0.5 µM
CCC(O)CNS(=O)(=O)CNc1ccc2c(C(=O)Nc3ccc(F)c(Cl)c3)n(C)nc2c1		PCR	HepAD38		100–1000 µM
CCOC(=O)C1=C(CN2CC(F)(F)[C@H]3[C@@H]2CCN3C[C@@H](F)C(C)(C)C(=O)O)NC(c2nc(C)cs2)=N[C@H]1c1ccc(F)c(F)c1F		PCR	HepG2.2.15		0.003 µM
Cn1nc2cc(NS(=O)(=O)c3cnn(-c4cccnc4)c3)ccc2c1C(=O)Nc1ccc(F)c(Cl)c1		PCR	HepAD38		<100 µM
CNC(=O)c1ccc(-n2c(=O)c3c(n4ncc(Cc5ccccc5)c24)CN(C(=O)c2ccc(Br)c(C(F)F)c2)CC3)cc1		luminescence	HepG2.117		≤0.05 µM
C#CC1(NC(=O)C(=O)c2c(C)c(C(=O)Nc3ccc(F)c(C#N)c3)n(C)c2C)CCC1		PCR	HepG2.2.15		<0.001 µM
Cn1cnc(-c2ccc([C@@H]3CN(C(=O)Nc4ccc(F)c(Cl)c4)CCS3(=O)=O)s2)c1		PCR	HepG2.117		0.5–5 µM
CC1Cc2c(n3ncc(CC4CC4)c3n(-c3ccc(C(=O)NCO)cc3)c2=O)CN1C(=O)c1ccc(Br)c(C(F)(F)F)c1		luminescence	HepG2.117		0.05–0.5 µM
Cc1c(C(=O)C(=O)NC(C)(C)c2cnn(C)c2)c(C)n(C)c1C(=O)Nc1ccc(F)c(C#N)c1		PCR	HepG2.2.15		0.001–0.0099 µM
O=C(c1ccc(Br)c(Cl)c1)N1CCS(=O)(=O)C(c2nccs2)C1		PCR	HepG2.117		0.1–0.5 µM
COC(=O)C1=C(CN2CC(F)(F)[C@@H]3[C@H]2CON3C[C@@H](F)C(C)(C)C(=O)O)NC(c2nccs2)=N[C@H]1c1ccc(F)c(F)c1C		PCR	HepG2.2.15		0.01 µM
Cn1nc2cc(NS(=O)(=O)C3CC3)ccc2c1C(=O)Nc1ccc(F)c(Cl)c1		PCR	HepAD38		100–1000 µM
CCOC(=O)C1=C(CN2CC(F)(F)[C@@H]3[C@H]2CON3C[C@@H](F)C(C)(C)C(=O)O)NC(c2nccs2)=N[C@@]1(C)c1cccc(F)c1C		PCR	HepG2.2.15		0.0095 µM
CC(C)NC(=O)c1c2n(c(=O)n1-c1ccccc1)CCN(C(=O)Nc1ccc(F)c(Cl)c1)C2		PCR	HepG2.2.15		0.5–5 µM
CCOC(=O)Nc1ccc2nn(C)c(C(=O)Nc3ccc(F)c(Cl)c3)c2c1		PCR	HepAD38		>1000 µM

Repeating the first 3 entries:

smiles	setting	method	cell line	strain or isolate	result
C#CCNC(=O)C(=O)c1cn(C)c(C(=O)Nc2ccc(F)c(C#N)c2)c1Cl		PCR	HepG2.2.15		0.01–0.099 µM
CNC(=O)C(=O)N1CCC2CC2(NS(=O)(=O)c2cn(C)c(C(=O)Nc3cc(F)c(F)c(F)c3)c2F)C1		PCR	HepAD38 cells		<0.1 µM
[2H][C@@]1(c2cccc(F)c2C)N=C(c2nccs2)NC(CN2CC(F)(F)[C@@H]3[C@H]2CON3C[C@H](O)C(C)(C)C(=O)O)=C1C(=O)OCC		PCR	HepG2.2.15		0.055 µM